Results of unrelated studies side by side (data: NIAID ChemDB).

Common to all: whole-cell or culture tests; agent: HIV-1; cells: CEM; endpoint: EC50

Lines come from different laboratories, so protocols vary. ECn: concentration that inhibits the pathogen or its effect by n%. Blank or dashed fields: not listed here.

compound,strain,mutations,read by,value
CC(C)c1c(Sc2ccccc2)n(COCCO)c(=O)[nH]c1=O,IIIB,RT-Y181I,syncytia,>10 µM
Cc1cn([C@H]2C[C@H](N=[N+]=[N-])[C@@H](CO)O2)c(=O)[nH]c1=O,IIIB,,syncytia,0.004 µM
O=C1c2ccc(O)cc2C(=O)N1C12CC3CC(CC(C3)C1)C2,IIIB,,syncytia,>13.3 µM
Cc1nnc(N)nc1/C=C/c1cccs1,,,cytopathic effect / XTT,>0.00635 µM
CC(C)OC(=S)Nc1ccc(Cl)c(C(=O)OCc2ccccc2)c1,,RT-L100I,syncytia,15.1 µM
COC(=O)C(OCC1OC(n2cc(C)c(=O)[nH]c2=O)CC1N=[N+]=[N-])P(=O)(O)OP(=O)(O)O,IIIB,,cytopathic effect / syncytia,56 µg/mL
CCOCn1c(Sc2ccccc2)c(C(C)C)c(=O)[nH]c1=S,IIIB,Nevirapine resistant (RT Y181C),syncytia,0.16 µM
Cc1occc1C(=S)Nc1ccc(Cl)c(/C=N/OC(C)(C)C)c1,IIIB,RT-Y188H,syncytia,0.64 µM
O=C(c1ccccc1)N(CCc1ccccc1)C[C@H](O)CN(CC1CCCC1)S(=O)(=O)c1ccc2nc[nH]c2c1,IIIB,,p24,<1 µM
COc1ccc(NC(=S)OC(C)C)cc1CC(=O)OC(C)C,,RT-L100I,syncytia,2.305 µM
CCOC(=O)c1cc(NC(=O)C2=C(C)OCCS2)ccc1Cl,IIIB,,syncytia,0.1 µg/mL
COC(=O)C(OCC1OC(n2cc(C)c(=O)[nH]c2=O)CC1N=[N+]=[N-])P(=O)(O)O,IIIB,,cytopathic effect / syncytia,10 µg/mL
CC(C)OC(=O)c1cc(NC(=S)SC(C)C)ccc1Cl,,RT-E138K,syncytia,>30.13 µM
Cc1ccc(C)c(C(C)S(=O)(=O)c2ccc(C)c[n+]2[O-])c1,IIIB,RT-K103N,syncytia,48 µg/mL
COc1ccc(C)cc1CS(=O)(=O)c1cccc[n+]1[O-],IIIB,RT-K103N,syncytia,44 µg/mL
Cc1ccc(C)c(C(C)S(=O)(=O)c2c(C)ccc[n+]2[O-])c1,IIIB,RT-K103N,syncytia,12 µg/mL
Nc1nc2c(ccn2C2CC(CO)(CO)C2)c(=O)[nH]1,LAV,,cytopathic effect,>30 µg/mL
CO/N=C/c1cc(NC(=S)OC(C)C)ccc1Cl,,RT-Y181C,syncytia,17.43 µM
CC(=O)N1C(=O)CC(=O)N(c2nnc(C)c(/C=C/c3ccc(N(C)C)cc3)n2)C1=S,,,cytopathic effect / XTT,>0.1 µM
Cc1ccc(C)c(CS(=O)(=O)c2cccc[n+]2[O-])c1,IIIB,RT-L100I,syncytia,10 µg/mL
CC(C)CN(CC(O)CCN1CSC[C@@H]1C(=O)NC(C)(C)C)S(=O)(=O)c1ccccc1,IIIB,,p24,<1 µM
CC(C)=CCOc1cc(NC(=S)c2ccoc2C)ccc1Cl,IIIB,RT-Y188L,syncytia,0.05 µg/mL
CC1=C(C(=O)Nc2ccc(Cl)c(C(=O)OC3CCCC3)c2)SCCO1,TIBO-resistant (RT L100I),RT-L100I,syncytia,2.5 µg/mL
CCc1c(Sc2cc(C)cc(C)c2)n(COCCO)c(=S)[nH]c1=O,IIIB,RT-Y188H,syncytia,≥10 µM
Cc1ccc(C)c(CS(=O)c2ccc(Cl)c[n+]2[O-])c1,RF,,cytopathic effect,10 µg/mL
COc1ccc(S(=O)(=O)N(CC(C)C)C(=O)C(=O)C(=O)[C@@H](Cc2ccccc2)NC(=O)OC(C)(C)C)cc1,IIIB,,p24,<1 µM
CCOCn1c(Cc2ccccc2)c(CC)c(=O)[nH]c1=O,IIIB,,syncytia,0.016 µM
Nc1nc2c(ncn2CCCC(O)CF)c(=O)[nH]1,IIIB,,cytopathic effect,>100 µg/mL
CC(C)OC(=O)c1cc(NC(=S)OC(C)C)ccc1Cl,IIIB,RT-Y181C,syncytia,1.9 µM
CC(C)OC(=S)Nc1ccc(Cl)c(C(=O)OCC(F)(F)F)c1,,RT-E138K,syncytia,19.68 µM
CC1=C(C(=O)Nc2ccc(C)c(C(=O)OC(C)C)c2)SCCO1,IIIB,,syncytia,0.45 µg/mL
O=C(Nc1ccc(Cl)c(C(=O)OC2CCCCC2)c1)c1ccccc1F,IIIB,RT-L100I,syncytia,≥10 µg/mL
CCc1c(Cc2cc(C)cc(C)c2)n(COCCO)c(=O)[nH]c1=O,IIIB TIBO R82913-resistant (RT K103N),RT-K103N,syncytia,2 µM
C#CCOC(=O)c1cc(NC(=S)OC(C)C)ccc1Cl,IIIB,,syncytia,0.93 µM
Cc1cn(C2CC(CO)(CO)C2)c(=O)[nH]c1=O,LAV,,cytopathic effect,>30 µg/mL
CCCCOC(=S)Nc1ccc(Cl)c(C(=O)OC(C)C)c1,,RT-L100I,syncytia,10.6 µM
O=C(NC12CC3CC(CC(C3)C1)C2)c1ccc([N+](=O)[O-])cc1,IIIB,,syncytia,>66.2 µM
CCOC(=O)c1cc(NC(=S)OC(C)C)ccc1C,,RT-Y181C,syncytia,30.2 µM
CCCOC(=O)c1ccc(C)c(NC(=O)C2=C(C)OCCS2)c1,TSAO-resistant (RT E138K),RT-E138K,syncytia,>10 µg/mL
C=CCSc1cc(NC(=S)OC(C)C)ccc1Cl,IIIB,,syncytia,0.127 µM
Cc1ccc(C)c(C(C)S(=O)(=O)c2c(C)ccc[n+]2[O-])c1,,RT-K103N,cytopathic effect,12 µg/mL
CCc1c(Sc2ccccc2)n(COCc2ccccc2)c(=S)[nH]c1=O,IIIB,RT-E138K,syncytia,0.09 µM
CC1=C(C(=O)Nc2cccc(C(=O)OC(C)C)c2)SCCO1,PYR-resistant (RT Y181C),RT-Y181C,syncytia,>10 µg/mL
Cc1cn([C@H]2C[C@H](SS[C@H]3C[C@H](n4cc(C)c(=O)[nH]c4=O)O[C@@H]3CO)[C@@H](CO)O2)c(=O)[nH]c1=O,IIIB,,syncytia,50 µM
CC(C)c1ccc(CS(=O)(=O)c2cccc[n+]2[O-])cc1,IIIB,,p24,~20 µg/mL
Cc1cn(C2CC(N=[N+]=[N-])C(COC(C(=O)O)P(=O)(O)OP(=O)(O)O)O2)c(=O)[nH]c1=O,IIIB,,cytopathic effect / syncytia,35 µg/mL
CCc1c(Sc2cc(C)cc(C)c2)n(COCCO)c(=O)[nH]c1=O,IIIB,RT-Y181I,syncytia,1.4 µM
O=C1c2ccccc2C(=O)N1C12CC3CC(CC(C3)C1)C2,IIIB,,syncytia,>704 µM
Nc1ncnc2c1ncn2C(CF)CCCO,IIIB,,cytopathic effect,>100 µg/mL
CC(C)OC(=O)Nc1ccc(Cl)c(C(=O)OC(C)C)c1,,RT-Y181C,syncytia,>33.36 µM
CC1=C(C(=O)Nc2cc(Cl)cc(C(=O)OC(C)C)c2)SCCO1,IIIB,,syncytia,5 µg/mL
Cc1ccc(C)c(CSc2c(Cl)ccc[n+]2[O-])c1,HE,,syncytia,0.2 µg/mL
Cc1ccc(C)c(CSc2c(Cl)ccc[n+]2[O-])c1,IIIB,,cytopathic effect,0.05 µg/mL
CC(C)OC(=S)Nc1ccc(Cl)c(C(=O)OCC[Si](C)(C)C)c1,,RT-L100I,syncytia,6.685 µM
Cc1cccc(CS(=O)(=O)c2cccc[n+]2[O-])c1,MN,,syncytia,13 µg/mL
CCC(C)OC(=S)Nc1ccc(Cl)c(C(=O)OC(C)(C)C)c1,IIIB,,syncytia,0.087 µM
Cc1ccc(C)c(CS(=O)(=O)c2cccc[n+]2[O-])c1,MN,,cytopathic effect,10 µg/mL
Cc1nnc(N)nc1/C=C/c1ccc(N(C)C)cc1,,,cytopathic effect / XTT,>0.6 µM
CC(C)O/N=C/c1cc(NC(=S)OC(C)C)ccc1Cl,IIIB,,syncytia,0.0303 µM
COc1ccc(S(=O)(=O)NC(CC(C)C)C(F)(F)C(=O)[C@@H](Cc2ccccc2)NC(=O)O[C@H]2CCOC2)cc1,IIIB,,p24,<1 µM
CC(C)OC(=O)c1cc(NC(=S)OC(C)(C)C)ccc1Cl,IIIB,,syncytia,1.819 µM
Cc1ccc(C)c(CS(=O)(=O)c2ccccn2)c1,IIIB,,syncytia,4 µg/mL
CC(C)OC(=O)c1cc(NC(=S)OCC2CC2)ccc1Cl,,RT-Y181C,syncytia,18.3 µM
Nc1ncnc2c1ncn2CCCC(O)CF,IIIB,,cytopathic effect,>100 µg/mL
Cc1ccc2c(c1)C(=O)N(C13CC4CC(CC(C4)C1)C3)C2=O,IIIB,,syncytia,>336 µM
Cc1ccc(C)c(CS(=O)(=O)c2cccc[n+]2[O-])c1,IIIB,RT-V179D,syncytia,8 µg/mL
Cc1cnc(NC(=O)NC(C)(C)C)n1CC(O)CN(CC(C)C)S(=O)(=O)c1ccccc1,IIIB,,p24,<1 µM
CC(C)OC(=O)c1cc(NC(=S)N(C)C(C)C)ccc1Cl,,RT-L100I,syncytia,>30.32 µM
COc1ccc(S(=O)(=O)N(CC[C@H](O)CN2CCN(C(=O)OCc3ccccc3)C[C@H]2C(=O)NC(C)(C)C)CC(C)C)cc1,IIIB,,p24,<1 µM
CC(C)OC(=O)c1cc(NC(=S)OC(C)C)ccc1Cl,,RT-V106A,syncytia,2.06 µM
CC1=C(C(=O)Nc2ccc(Cl)c(C(=O)OCC3CCC3)c2)SCCO1,IIIB,,syncytia,0.085 µg/mL
C/C=C\COc1cc(NC(=S)OC(C)C)ccc1Cl,,RT-V106A,syncytia,2 µM
Cc1ccc(C)c(C(Cl)S(=O)(=O)c2cc(C)cc[n+]2[O-])c1,IIIB,RT-L100I,syncytia,>4 µg/mL